Results of unrelated studies side by side (data: NIAID ChemDB).

All rows: growth or infection tests; agent: HIV-1; measure: fold resistance

Neighbouring rows are from separate reports. Blank or dashed fields: not listed here. Fold resistance has wild type as its base.

smiles	read by	cell line	changes	strain or isolate	value
Cc1cc(S(N)(=O)=O)ccc1NC(=O)COc1ccc(Cl)cc1C(=O)c1cccc(C#N)c1	β-galactosidase	HeLa + HELA CD4+	RT-Y188C	HXB2	~1
O=C1Nc2ccc(Cl)cc2[C@@](/C=C/C2CC2)(C(F)(F)F)N1	-	-	RT-Y181C	-	<6
Cc1cc(S(N)(=O)=O)ccc1NC(=O)COc1ccc(Cl)cc1C(=O)c1cc(F)cc(C(F)(F)F)c1	β-galactosidase	HeLa + HELA CD4+	RT-K101E	HXB2	~1
CCc1c(Sc2cc(C)cc(C)c2)n(COCc2ccccc2)c(=O)[nH]c1=O	syncytia	CEM	RT-K103N	IIIB TIBO R82913-resistant (RT K103N)	60
Cc1cc2[nH]cnc2cc1NC(=O)COc1ccc(Cl)cc1C(=O)c1cc(F)cc(C(F)(F)F)c1	β-galactosidase	HeLa + HELA CD4+	RT-Y181C	HXB2	~1
O=C1Nc2ccc(F)c(F)c2[C@@](/C=C/C2CC2)(C(F)(F)F)N1	-	-	RT-K103N Y181C	-	57.9
CC(C)=CCOc1cc(NC(=S)c2ccsc2C)ccc1Cl	cytopathic effect / XTT	CEM + CEM-SS	RT-M184I	3TC-RS (RT-M184I)	1
CC(C)c1c(Sc2ccccc2)n(COCCO)c(=S)[nH]c1=O	syncytia	CEM	RT-Y181I	IIIB	>50
COc1ccccc1C(=O)Nc1ccc(Cl)c(C(=O)OC(C)C)c1	cytopathic effect / XTT	CEM + CEM-SS	RT-Y181C	UC781-R (RT-Y181C)	7.77
Cc1ccc(C2CC2)c(-c2ccc3c(c2C)CCCO3)c1[C@H](OC(C)(C)C)C(=O)O	p24 / luminescence	MT-4	N222K	NL4-3	3
O=C1Nc2ccc(Cl)cc2[C@@](C#CC2CC2)(C(F)(F)F)O1	-	MT-4	V106A	-	3
CC(C)=CCOc1cc(NC(=S)c2ccoc2C)ccc1Cl	cytopathic effect / XTT	CEM + CEM-SS	RT-K103N	NL4-3 (RT K103N)	16.7
C[C@@H]1CCO[C@H]2Cn3cc(C(=O)NCc4ccc(F)cc4F)c(=O)c(O)c3C(=O)N12	RT activity	CBMC	E138K/R263K	NL4-3	2.4
C/C=C/CSc1cc(NC(=S)c2ccsc2C)ccc1Cl	p24	CEM + CEM-SS	RT-Y181C	NL4-3	6
CCOCn1c(Sc2ccccc2)c(C(C)C)c(=O)[nH]c1=S	syncytia	CEM	RT-E138K	IIIB	10
CCC(=O)c1ccc(F)c([C@@H]2C[C@@H]2NC(=O)Nc2ccc(C#N)cn2)c1O	β-galactosidase / luminescence	TZM-bl	NNRTI-resistant (RT K103S)	LAI	22.7
CC(C)c1c(Sc2ccccc2)n(COCCO)c(=O)[nH]c1=O	syncytia	CEM	RT-L100I	IIIB (TIBO 82150) (RT-L100I)	10
Cc1cc(C)cc(C(=O)c2cc(Cl)ccc2OCC(=O)Nc2ccc(S(N)(=O)=O)cc2C)c1	β-galactosidase	HeLa + HELA CD4+	RT-K103N Y181C	HXB2 (RT-K103N Y181C) Recombinant	~1
CCc1c(Sc2ccccc2)n(COCc2ccccc2)c(=O)[nH]c1=O	syncytia	CEM	Nevirapine resistant (RT Y181C)	IIIB	60
Cc1cc(NS(=O)(=O)CC2CCCCC2)c(C)c(C(OC(C)(C)C)C(=O)O)c1-c1ccc2c(c1)CCCO2	luminescence	MT-4	PI-resistant ARP-11803 (L33F/E34T/K43T/G48V/I54S/L63P/A71V/V82A)	NL4-3	1

The first 2 rows once more:

smiles | read by | cell line | changes | strain or isolate | value
Cc1cc(S(N)(=O)=O)ccc1NC(=O)COc1ccc(Cl)cc1C(=O)c1cccc(C#N)c1 | β-galactosidase | HeLa + HELA CD4+ | RT-Y188C | HXB2 | ~1
O=C1Nc2ccc(Cl)cc2[C@@](/C=C/C2CC2)(C(F)(F)F)N1 | - | - | RT-Y181C | - | <6